Data as given in PubChem BioAssay AID624099 (ICCB-Longwood, 2012).

- Purpose: 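Knock-downs relieving repression by E2 of an HPV18 LCR luciferase reporter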 (primary screen)
- Cell system: human C33A cervical carcinoma cells (HPV-negative) stably expressing BPV1 E2 and an HPV18 LCR luciferase reporter
- Knock-down reagent: siRNA pool against human genes, 40 nM
- Timing: 72 h
- Measured: 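Per-well luciferase luminescence, z-scored on each plate against the plate mean and SD with control wells left out, then averaged across three replicate plates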
- Direction: mean z-score and z-score: higher = stronger reporter signal, weaker E2 silencing
- Active means: 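Mean z ≥ 2 together with z ≥ 2 in two or more of the three replicates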
Here is one part, drawn at random, of about 21,000 reagents tested. 497 of all reagents (2.4%) count as active. 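Higher z means weaker E2 silencing; only reporter increases were scored, and knock-downs that hurt cell survival may mask genuine repressor factors.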

{"Gene": "PODNL1", "mean z-score": 3.66, "z-score, replicate A": 4.26, "z-score, replicate B": 4.25, "z-score, replicate C": 2.46, "Outcome": "active"}
{"Gene": "LOC389178 (retired record)", "mean z-score": -0.99, "z-score, replicate A": -0.73, "z-score, replicate B": -1.37, "z-score, replicate C": -0.87, "Outcome": "inactive"}
{"Gene": "ARHGEF19", "mean z-score": 0.35, "z-score, replicate A": 0.51, "z-score, replicate B": 0.21, "z-score, replicate C": 0.34, "Outcome": "inactive"}
{"Gene": "GNB2", "mean z-score": 0.39, "z-score, replicate A": 0.07, "z-score, replicate B": 0.72, "z-score, replicate C": 0.4, "Outcome": "inactive"}
{"Gene": "PLK5", "mean z-score": -2.12, "z-score, replicate A": -2.22, "z-score, replicate B": -2.16, "z-score, replicate C": -1.97, "Outcome": "inactive"}
{"Gene": "TRHR", "mean z-score": -0.25, "z-score, replicate A": -0.25, "z-score, replicate B": -0.12, "z-score, replicate C": -0.39, "Outcome": "inactive"}
{"Gene": "CBLL2", "mean z-score": 0.16, "z-score, replicate A": 0.07, "z-score, replicate B": 0.41, "z-score, replicate C": -0.01, "Outcome": "inactive"}
{"Gene": "RESF1", "mean z-score": 1.82, "z-score, replicate A": 1.7, "z-score, replicate B": 2.07, "z-score, replicate C": 1.69, "Outcome": "inactive"}
{"Gene": "MRPL18", "mean z-score": -0.44, "z-score, replicate A": -0.23, "z-score, replicate B": -0.62, "z-score, replicate C": -0.48, "Outcome": "inactive"}
{"Gene": "UBE2L3", "mean z-score": -0.58, "z-score, replicate A": -0.58, "z-score, replicate B": -0.68, "z-score, replicate C": -0.49, "Outcome": "inactive"}
{"Gene": "ACSL6", "mean z-score": -0.6, "z-score, replicate A": -1.05, "z-score, replicate B": -0.47, "z-score, replicate C": -0.29, "Outcome": "inactive"}
{"Gene": "MBD4", "mean z-score": -1.3, "z-score, replicate A": -1.37, "z-score, replicate B": -1.11, "z-score, replicate C": -1.41, "Outcome": "inactive"}

Continued, starting with the last 2 of the part before.
{"Gene": "ACSL6", "mean z-score": -0.6, "z-score, replicate A": -1.05, "z-score, replicate B": -0.47, "z-score, replicate C": -0.29, "Outcome": "inactive"}
{"Gene": "MBD4", "mean z-score": -1.3, "z-score, replicate A": -1.37, "z-score, replicate B": -1.11, "z-score, replicate C": -1.41, "Outcome": "inactive"}
{"Gene": "RAPGEF1", "mean z-score": 1.01, "z-score, replicate A": 0.89, "z-score, replicate B": 1.19, "z-score, replicate C": 0.95, "Outcome": "inactive"}
{"Gene": "CNN3", "mean z-score": -0.6, "z-score, replicate A": -0.45, "z-score, replicate B": -0.86, "z-score, replicate C": -0.5, "Outcome": "inactive"}
{"Gene": "CD1A", "mean z-score": 0.27, "z-score, replicate A": 0.28, "z-score, replicate B": 0.39, "z-score, replicate C": 0.13, "Outcome": "inactive"}
{"Gene": "REM1", "mean z-score": -0.41, "z-score, replicate A": -0.4, "z-score, replicate B": -0.81, "z-score, replicate C": -0.02, "Outcome": "inactive"}
{"Gene": "ARHGAP24", "mean z-score": 1.05, "z-score, replicate A": 0.79, "z-score, replicate B": 0.96, "z-score, replicate C": 1.4, "Outcome": "inactive"}
{"Gene": "CRYBB2", "mean z-score": -1.15, "z-score, replicate A": -1.09, "z-score, replicate B": -1.12, "z-score, replicate C": -1.24, "Outcome": "inactive"}
{"Gene": "LOC401861 (retired record)", "mean z-score": -0.55, "z-score, replicate A": -0.78, "z-score, replicate B": -0.51, "z-score, replicate C": -0.37, "Outcome": "inactive"}
{"Gene": "PYCARD", "mean z-score": 1.4, "z-score, replicate A": 1.64, "z-score, replicate B": 1.12, "z-score, replicate C": 1.43, "Outcome": "inactive"}
{"Gene": "XKR4", "mean z-score": 0.02, "z-score, replicate A": 0.14, "z-score, replicate B": -0.34, "z-score, replicate C": 0.26, "Outcome": "inactive"}
